Pooled drug test results. Numbers come from NIAID ChemDB, via PubChem.

All rows: growth or infection tests; organism: HIV-1; strain: IIIB; cells: H9; measure: inhibition

Lines come from different laboratories, so protocols vary. Blank or dashed fields: not listed here. Percent inhibition refers to the dose given; in toxicity tests it is the harm to the cells.

{"SMILES": "Nc1nc(=O)n([C@@H]2C[C@H](O)[C@@H](CO)O2)cc1C1CC1", "method": "RT activity", "dose": "10 µg/mL", "value": "36%"}
{"SMILES": "NCC(=O)N1CCC[C@H]1C(=O)NCC(=O)NCC=O", "method": "syncytia", "dose": "250 µg/mL", "value": "80%"}
{"SMILES": "CCCCCCCCCCCCCCCCOC[C@H](CCl)OP(=O)(O)OCC[N+](C)(C)C", "method": "RT activity", "dose": "3 µM", "value": "83%"}
{"SMILES": "Nc1nc(=O)n([C@@H]2C[C@H](O)[C@@H](CO)O2)cc1-c1ccsc1", "method": "RT activity", "dose": "10 µg/mL", "value": "10%"}
{"SMILES": "NC(N)=NCCC[C@H](NC(=O)[C@@H](N)Cc1ccc(O)cc1)C(=O)NCC(=O)N1CCC[C@H]1C(=O)NCC=O", "method": "p24", "dose": "250 µg/mL", "value": "97.9%"}
{"SMILES": "c1cc2c(cc1[C@H]1OC[C@H]3[C@@H]1CO[C@@H]3c1ccc3c(c1)OCO3)OCO2", "method": "p24", "dose": "8.2 µM", "value": "97%"}
{"SMILES": "O=C(O)P(=O)(O)O", "method": "p24 / antigen", "conditions": "4 d", "dose": "300 µM", "value": "100%"}
{"SMILES": "COc1ccc(C[C@H]2COC(=O)[C@@H]2Cc2ccc(O[C@@H]3O[C@H](CO)[C@@H](O)[C@H](O)[C@H]3O)c(OC)c2)cc1OC", "method": "syncytia", "dose": "5 µM", "value": "93%"}
{"SMILES": "Nc1nc(=O)n([C@H]2C[C@H](O)[C@@H](CO)O2)cc1-c1cccnc1", "method": "RT activity", "dose": "10 µg/mL", "value": "17.5%"}
{"SMILES": "COc1cc([C@@H]2c3cc4c(cc3[C@H](O)[C@H]3COC(=O)[C@H]23)OCO4)cc(OC)c1OC", "method": "syncytia", "dose": "0.007 µM", "value": "84%"}
{"SMILES": "CC[C@@]1(O)C(=O)OCc2c1cc1n(c2=O)Cc2cc3ccccc3nc2-1", "method": "RT activity", "dose": "0.005 µM", "value": "89%"}
{"SMILES": "NCC(=O)N1CCC[C@H]1C(=O)NCC=O", "method": "p24", "dose": "250 µg/mL", "value": "98.5%"}
{"SMILES": "Nc1nc(=O)n([C@@H]2C[C@H](O)[C@@H](CO)O2)cc1-c1cccs1", "method": "RT activity", "dose": "10 µg/mL", "value": "<1%"}
{"SMILES": "C[C@@H](C=O)NC(=O)[C@@H]1CCCN1C(=O)CN", "method": "p24", "dose": "250 µg/mL", "value": "0%"}
{"SMILES": "O[C@H]1OC[C@H](Cc2ccc3c(c2)OCO3)[C@H]1Cc1ccc2c(c1)OCO2", "method": "syncytia", "dose": "12.7 µM", "value": "86%"}
{"SMILES": "Nc1nc(=O)n([C@@H]2C[C@H](O)[C@@H](CO)O2)cc1-c1cccnc1", "method": "RT activity", "dose": "10 µg/mL", "value": "25%"}
{"SMILES": "NCC(=O)N1CCC[C@H]1C(=O)NCC(=O)N[C@H](C=O)CCCN=C(N)N", "method": "syncytia", "dose": "250 µg/mL", "value": "0%"}

2 of the rows above, restated:

SMILES | method | conditions | dose | value
Nc1nc(=O)n([C@H]2C[C@H](O)[C@@H](CO)O2)cc1-c1cccnc1 | RT activity |  | 10 µg/mL | 17.5%
COc1cc([C@@H]2c3cc4c(cc3[C@H](O)[C@H]3COC(=O)[C@H]23)OCO4)cc(OC)c1OC | syncytia |  | 0.007 µM | 84%